From US9677053B2, “Laccases for bio-bleaching” (BASF ENZYMES LLC, priority 2006, dated 2017)

B1: BD22865: laccase from Fusarium verticillioides, SEQ ID NO: 4, expressed in Aspergillus niger, tested as culture supernatant (protein)
chain: MALIERVWHACVSIVAWLTMWPTSPSTSYQHPLRPNHPHTHIEDPSPGFPIFHPPPGDHEFLCEYPEMTGFVQCSIPENRECWLRHPDGREFNIHTNYENFAPKGIMRHYTLNITESWYNADGQNFTEAKLFNGEYPGPWLEACWGDTFNITVINSMKRNGTSIHWHGIRQNQTMDMDGVNGITQCPIAPGDSFSYIFNTTQYGTSWYHSHYSVQYADGLQGPITIHGPQSAPYDATKRPLLMTDWSHESAFRLLFPGSQFSNKTILLNGAGNVSHYGYTPTLPIPDNYELYFNKTPTDKPTRPKRYLLRLINTSFDSTLVFSIDNHWLQIVTSDFVPIEPYFNTSVLIGIGQRYNVIVEANPLGGDVNEIPDDGNFWIRTWVADACGIAPGGEGYEKTGILRYNHSDKALPSSQPWVNISKACSDETYTSLRPKIPWYIGPAANAQNGERFNVTFDPNAKNTPEFQEEYPVATFGLQRPGQNFRPLQINYSDPVMFHLDEPRDTYPPKWVVIPEDYTEKEWVYFVLTIEGISARTGAHPIHLHGHDFALLQQEENQTYDPSRLNLKLDNPPRRDVVLLPRNGFVVIAFKADNPGIWLMHCHIARHASEGLAMQVLERQGDSNKLFPVGSPNMIEAERVCKVWETWMDGEKDFFEGDSGI
modifications: Fusarium verticillioides
B2: BD22449: laccase from Cochiobolus heterostrophus, SEQ ID NO: 2, expressed in Aspergillus niger, tested as culture supernatant (protein, listed as Cochliobolus heterostrophus)
chain: MVSSISRVVTALGLLLPTVTSSVVPHKSLAPRTPEVPWKNTGLFSGHSKRQGYETACNHGPESRGCWIDDFNIDTDMDVEWPDTGKTVKYHLTITNTTGAPDGFERPMFLINGQYPGPTITADWGDVLEITVTNGLENNGTGIHWHGLRQLGTNEQDGVNGITECPIAPGDSKLYRFKATQYGTTWYHSHYSVQYGDGIVGPLIIKGPSTANYDIDLGAFPMTDWFHATTFTVNAAAVHANGPPTADNVLVNGSMTSSFGGKYAETILTPGKSHLLRLMNVGINNYLHVGLDGHQFQVISADFTPIEPFYTDSLVLAVGQRYEVIINATEAVGNYWLRVGTGGNCDGPNANAANIRSIFRYAGAPTEDPDTTGSLPSGCYDEDVVPYAKTTVPQEMPEQLSVGFNPNWTSDVTQNQGLVQWLVNGNPMAVDLEVPTLQSVLDGNVTYGNNRHVFAVDEKHQWQYWVIQQNSSNPPLPHPIHLHGHDFYVLAQVENAVWNGDISTLKTDNPIRRDTADLPAGGYLVLAFESDNPGAWLMHCHIPFHVAAGLGVQFLERESEIKAQDGYAEMHRTCANWQSWRYKYHPNGILFPGDSGLRRRN

Assays:
[1] = TEMPO oxidation, oxygen consumption (OXYTHERM); format: biochemical; conditions: concluded from TEMPO, violuric acid and HBT oxidation at pH 8
Method: Briefly, 50 μL of test culture supernatants isolated as described in Example 2 was incubated with 950 uL TEMPO (1 mM in Britton-Robinson Buffer at pH 8) at 22° C. in an OXYTHERM™ oxygen measurement instrument (Hansatech, England). Oxygen consumption was measured over time according to the manufacturer's instructions.

[2] = thermotolerance, residual activity on ABTS; format: biochemical; conditions: an hour
Method: Laccases BD22449 and BD22865, identified and characterized in Examples 1-5 above were assayed for thermotolerance. Briefly, each laccases was tested at 50° C., 60° C. and 70° C. for 0-60 minutes wherein the residual activity on ABTS was measured. Supernatants from the Aspergillus cultures expressing BD22449 (SEQ ID NO:2) and BD22865 (SEQ ID NO:4) were isolated as described in Example 2. Supernatants were incubated at 50° C., 60° C. or 70° C. for 1 min, 5 min, 10 min, 30 min, and 60 min. For each time point, the oxidation of 2, 2′-azino-bis(3-ethylbenzthiazoline-6-sulfonic acid) (ABTS) by the laccase was measured using an OXYTHERM™ oxygen measurement instrument.

Molecule | redox potential class of laccase [1] | tolerance of 50° C. heat challenge [2] | tolerance of 60° C. heat challenge ([2]; 60° C.)
B1 | high redox potential | tolerated a 50 °C heat challenge well | –
B2 | medium redox potential | tolerated a 50 °C heat challenge well | unchallenged
